Results from the supplement of paper PMC12637763.
Some of the results follow. Env chains of viruses from a treatment-interruption trial, translated from the printed DNA. IC50 / IC80 of two broadly neutralizing antibodies; lower = more sensitive virus; >50 µg/ml means not reached and <0.001 µg/ml is below the lowest dose. No active / inactive call.

B1: HIV-1 Env, rebound clone, antibody arm (protein)
chain: MKVKVTMRNYQNLWRGGTLLLGMLMICSGAEQLWVTVYYGVPVWKEANTTLFCASDAKAYDTEVHNVWATHACVPTDPSPQEVVLENVTEDFNIWKNNMVEQMHEDIISLWDQSLKPCVKLTPLCVTLNCSNVNNQTGTNNNSSHGKDVEGEMKNCSFNVTTNIRDKIKREYALLYKLDIVPIDNDNTSYTLTSCNTSVITQACPKVSFEPIPIHYCAPAGFAILKCNNKTFNGKGPCTNVSTVQCTHGIRPVVSTQLLLNGSLAEDVVLRSENFTNNAKTIIVQLKEPVIINCTRPNNNTRKSIPMGPGRAWYTTGEIIGDIRQAHCNINKAQWNKTLQQVVTKLREQFGNKTIVFNQPTGGDPEIVMHSFNCGGEFFYCNTSKLFNSTWNNSTQGFNSTGESNTTITIQCTIKQIINMWQQVGKAMYAPPIAGQIKCSSNITGLLLTRDGGGNKTENETFRPAGGDMRDNWRSELYKYKVVQIKPLGIAPTKAKRRVVQREKRAVGIGALFLGFLGAAGSTMGAAAVTLTVQARQLLSGIVQQQNNLLRAIEAQQHMLQLTVWGIKQLQARVLAVERYLRDQQLLGIWGCSGKLICTTTVPWNNSWSNKSLDDIWGNMTWMEWEKEIDNYTYTIYKLIEESQNQQEKNEQELLELDKWANLWNWFDITNWLWYIKIFIIIVGGLIGLRIVFAVLSIVNRVRQGYSPLSLQTLLPAPRGPDRPGEIEEEGGERDKDTSVRLVNGFLAIIWDDLRSLCLFSYRHLRDLLLIVTRIVGLLGHRGWEVLRYWWNLLQYWIQELKNSAVSLLNVTAIAVAEGTDRVIEIAQRACRAVLHIPRRIRQGLERGLL
B2: HIV-1 Env, rebound clone, placebo arm (protein)
chain: MRVKGIMRNYQHLWRWGIMLLGILMICNATEKLWVTVYYGVPVWKEATTTLFCASDAKAYDTEAHNVWATHACVPTDPDPQEVVLENVTENFNAWKNDMVEQMHEDIISLWDQSLKPCVKLTPLCVTLECTDNVNCTGTNCTGVKDTNDTNNANLIMEKGEMKNCSFNITTNIRDKVDRQYALFYKLDIVQIEDNNTNTYRLISCNTSVITQACPKVSFEPIPIHYCAPAGFAILKCKDKGFSGKGTCKNVSTVQCTHGIRPVVSTQLLLNGSLAEKEVVIRSNNLTNNAETIIVQLSKTIQINCTRPNNNTRKGIHIGPGRAFYATGEIIGDIRQAHCNISGKDWNEALKWIAGKLKEKFNKTIVFRPPIRGGDPEIVMHTFNCGGEFFYCNTTKLFNSTHNDTHDTAINNTTITLPCKIKQIINMWQEVGKAMYAPPIRGNISCSSNITGLLLIRDGGNTSTNETFRPGGGNMKDNWRSELYKYKVVKIEPLGVAPTKAKRRVVQREKRAMGLGALFLGFLGAAGSTMGAASVTLTVQARQLLSGIVQQQNNLLRAIEAQQHMLQLTVWGIKQLQARVLAVERYLKDQQLLGIWGCSGKLICTTSVPWNTSWSNKSYHQIWENMTWMQWEKEIDNYTGIIYTLIEESQTQQEMNEKELLELDKWAGLWNWFSITNWLWYIRIFIMIVGGLIGLRIVFAVLSIVKRVRQGYSPLSFQTLFPTQRGPDRPGEIEEEGGEQDRGRSIRLVDGFLALFWDDLRSLCLFSYHRLRDLLLIVARIVELLGRRGWEILKYWWSLLQYWSQELKNSAISLLNTTAIIVGEGTDRVIETAQRVVRAFLHIPRRIRQGFERALQ
B3: HIV-1 Env, rebound clone, placebo arm (protein)
chain: MRVKGIMRNYQHLWRWGIMLLGMLMICNATEKLWVTVYYGVPVWKEATTTLFCASDAKAYDTEAHNVWATHACVPTDPDPQEVVLENVTENFNAWKNDMVEQMHEDIISLWDQSLKPCVKLTPLCVTLECTDNVNCTGTNCTGVKDTNDTNNANLIMEKGEMKNCSFNITTNIRDKVDRQYALFYKLDIVQIEDNNTNTYRLISCNTSVITQACPKVSFEPIPIHYCAPAGFAILKCKDKGFSGKGTCKNVSTVQCTHGIRPVVSTQLLLNGSLAEKEVVIRSNNLTNNAETIIVQLSKTIQINCTRPNNNTRKGIHIGPGRAFYATGEIIGDIRQAHCNISGKDWNEALKWIAGKLKEKFNKTIVFRPPIRGGDPEIVMHTFNCGGEFFYCNTTKLFNSTHNDTHDTAINNTTITLPCKIKQIINMWQEVGKAMYAPPIRGNISCSLNITGLLLIRDGGNTSTNETFRPGGGNMKDNWRSELYKYKVVKIEPLGVAPTKAKRRVVQREKRAMGLGALFLGFLGAAGSTMGAASVTLTVQARQLLSGIVQQQNNLLRAIEAQQHMLQLTVWGIKQLQARVLAVERYLKDQQLLGIWGCSGKLICTTSVPWNTSWSNKSYHQIWENMTWMQWEKEIDNYTGIIYTLIEESQTQQEMNEKELLELDKWAGLWNWFSITNWLWYIRIFIMIVGSLIGLRIVFAVLSIVKRVRQGYSPLSFQTLFPTQRGPDRPGEIEEEGGEQDRGRSIRLVDGFLALFWDDLRSLCLFSYHRLRDLLLIVARIVELLGRRGWEILKYWWSLLQYWSQELKNSAISLLNTTAIIVGEGTDRVIETAQRVVRAFLHIPRRIRQGFERALQ

target: antibody 10-1074; test: neutralization IC50; higher = virus less sensitive to the antibody
Method: (§1)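 Pseudovirus bearing the Env chain mixed with antibody, from 50 µg/ml in fivefold dilutions, on TZM-bl reporter cells, in duplicate.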

Row | Binder | neutralization IC50 [µg/mL]
1 | B1 | > 50
2 | B2 | 0.13
3 | B3 | 0.093

target: antibody 3BNC117; test: as above
Method: as §1

Row | Binder | neutralization IC50 [µg/mL]
4 | B1 | 0.035
5 | B2 | 0.088
6 | B3 | 0.091

target: antibody 10-1074; test: neutralization IC80; higher = virus less sensitive to the antibody
Method: as §1

Row | Binder | neutralization IC80 [µg/mL]
7 | B1 | > 50
8 | B2 | 0.448
9 | B3 | 0.307

target: antibody 3BNC117; test: as above
Method: as §1

Row | Binder | neutralization IC80 [µg/mL]
10 | B1 | 0.111
11 | B2 | 0.318
12 | B3 | 0.416
